SMILES strings stand for the structures. Where “and” joins values, the source holds several entries; their conditions need not be identical. Identical values can stand only once.

This test has as its system acetic acid-induced writhing in mice. Format: in vivo, Kunming mice. The settings on record: aspirin combined with TTX 0.79 μg/kg (1/25 LD50), i.m.; probit method.

For `CC(=O)Oc1ccccc1C(=O)O` [ASP, Aspirin], the “ID50 (half inhibition dose) of aspirin” value is 5.0 mg/kg and 5.01 mg/kg.

The values are drawn from patent US20090105197A1, “Use of Sodium Channel Blocking Compounds and Aspirin in Manufacturing Drugs for Producing Analgesia Synergistically in Mammals” (priority 2001, published 2009).
